PSTVd loop 6 mutant pool in Nicotiana benthamiana

Values reported by Wu et al. 2024 (doi:10.1371/journal.ppat.1012142).

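Three N. benthamiana plants were inoculated with the whole mutant pool. Progeny were sequenced from the inoculated region (day 5), the margin of the inoculated leaf (day 10) and systemic leaves (day 12).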

The pool varies loop 6 of the PSTVd intermediate strain in the pattern UNNNCGNNNG; wild type is UGACCGCGAG (upper and lower strand joined, each 5' to 3', the first 5 letters being the upper strand, closing pairs included).

Values are reads per thousand in the sample; higher means more abundant, 0 means not found. Each site shows the three plants. "Pool" is the share in the plasmid pool used as inoculum, on the same scale. The inoculated region was read from the minus strand, the other sites from the plus strand. The authors trace changes outside the varied positions to PCR and sequencing errors or to mutation in the plant; presence does not show that a variant is infectious alone.

sequence,pool,inoculated region,leaf margin,systemic leaves
UGACCGAUUG,0.536,0.313 0.287 0.221,0.138 0.202 0.232,0.126 0.364 1.03
UGCCCGUUAG,0.327,0.174 0.162 0.111,0.0276 0 0,0 0 0
UCACCGUCCG,0.118,0.0869 0.0539 0.0922,0.0276 0 0.0232,0 0 0
UGGCCGAGUG,0.248,0.156 0.108 0.111,0 0 0,0 0 0
UUAGCGUGCG,0.118,0.0695 0.0359 0.0369,0.0276 0 0,0 0 0
UGUUCGACUG,0.209,0.139 0.0898 0.0553,0 0 0,0 0 0
UUGACGCCCG,0.275,0.0869 0.0719 0.0369,0.0276 0 0,0 0 0
UGCACGAUAG,0.314,0.156 0.108 0.166,0.0276 0 0.186,0 0 0
UCCGCGUUUG,0.222,0.0695 0.144 0.0738,0 0 0.0232,0 0 0
UCCACGACAG,0.235,0.122 0.126 0.0738,0 0 0,0 0 0
UCGACGCCGG,0.170,0.0695 0.0719 0.0738,0 0 0.0232,0 0 0
UAUCCGGUGG,0.261,0.139 0.144 0.0922,0 0 0,0 0 0
UUAGCGCCUG,0.314,0.0695 0.0359 0.111,0.0276 0 0,0 0 0
UCCUCGCGUG,0.196,0.104 0.108 0.0553,0 0.0252 0.0232,0 0 0
UCGCCGGGAG,0.196,0.191 0.108 0.0369,0 0 0,0 0 0
UUGUCGACGG,0.235,0.174 0.0898 0.129,0 0 0,0 0 0
UGCACGUACG,0.196,0.209 0.0898 0.0738,0 0 0,0 0 0
UUGACGGGAG,0.131,0.938 0.719 0.535,0.166 0.101 0.0696,0.0359 0.0606 0.0205
UGGGCGUUGG,0.327,0.174 0.108 0.0184,0 0 0.0464,0 0 0
UUAGCGUCAG,0.261,0.608 0.503 0.406,0.110 0.101 0.0696,0 0 0
UUGUCGAGGG,0.131,0.261 0.126 0.111,0.0276 0 0.0464,0 0 0
UACUCGGAAG,0.105,0.139 0.108 0.0738,0 0 0,0 0 0
UAGUCGGCGG,0.157,0.122 0.0359 0.0922,0 0 0,0 0 0
UUCCCGAGGG,0.222,0.122 0.108 0.0369,0.0276 0 0,0 0 0
UCCGCGGAAG,0.0784,0.0521 0.0719 0.0553,0 0 0,0 0 0
UGGUCGCUCG,0.275,0.156 0.0359 0,0 0 0,0 0 0
UAACCGACUG,0.314,0.0521 0.0898 0.148,0 0 0,0 0 0
UUGUCGCCGG,0.222,0.104 0.126 0.0553,0 0 0,0 0 0
UACGCGAGUG,0.131,0.0521 0.0359 0.0922,0.0276 0 0,0 0 0
UCCGCGGACG,0.196,0.0348 0.0359 0.0369,0 0 0,0 0 0
UUAUCGUCGG,0.366,0.122 0.0719 0.0738,0 0 0.0232,0 0 0
UAUCCGGCAG,0.183,0.0869 0.0719 0.0738,0 0 0,0 0 0
GUCCCGAAAG,0.0131,0 0 0,0 0 0,0 0 0
UAGACGUAAG,0.131,0.0869 0.0359 0.111,0.0276 0 0.0232,0 0 0
UAUCCGUAUG,0.379,0.122 0.198 0.0922,0.387 0 0,0 0 0.0410
UGUACGGUUG,0.301,0.0521 0.126 0.0922,0 0 0.0232,0 0 0
UAGUCGCUAG,0.0784,0.174 0.0898 0.0369,0 0 0.0232,0 0 0
UGUACGUUGG,0.261,0.209 0.0359 0.0922,0 0 0.0232,0 0 0
UUAGCGUGAG,0.196,0.608 0.575 0.369,0.110 0.151 0.0232,0 0 0
UGAACGGCCG,0.131,0.156 0.144 0.184,0.0276 0 0.0232,0 0 0
UACUCGGAGG,0.170,0.0869 0.108 0.0369,0 0 0,0 0 0
UCACCGGUCU,0.0131,0 0 0,0 0 0,0 0 0

The opening 2 entries, copied out:

sequence,pool,inoculated region,leaf margin,systemic leaves
UGACCGAUUG,0.536,0.313 0.287 0.221,0.138 0.202 0.232,0.126 0.364 1.03
UGCCCGUUAG,0.327,0.174 0.162 0.111,0.0276 0 0,0 0 0

For reference, wild type rose from 20.7 per thousand in the pool to 195, 198, 203 (inoculated region), 629, 591, 734 (leaf margin) and 942, 870, 868 (systemic leaves). With 36,220-57,551 reads a sample, very low values are single reads.